Test results from ChEMBL document CHEMBL3808355, “Systematic evaluation of methyl ester bioisosteres in the context of developing alkenyldiarylmethanes (ADAMs) as non-nucleoside reverse transcriptase inhibitors (NNRTIs) for anti-HIV-1 chemotherapy” (Bioorg Med Chem, 2016).

Target: Human immunodeficiency virus type 1 reverse transcriptase (Human immunodeficiency virus 1, UniProt Q72547, K103N)
Assay: Inhibition of HIV-1 BH10 recombinant reverse transcriptase K103N mutant expressed in Escherichia coli assessed as incorporation of [32P]GTP into poly(rA)/oligo(dT) as template primer
Design: species or system Human immunodeficiency virus type 1 BH10

## Cc1cc(C#N)cc(C)c1Oc1nc(Nc2ccc(C#N)cc2)nc(N)c1Br [ETRAVIRINE]
  IC50: 18 nM
